Experimental data as given in PubChem BioAssay AID977628 (Broad Institute, 2014).
Results filed as inconclusive are left out. Activity calls are given as the source filed them.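 How the source made its calls: active means compound lowering the normal-ribosome reporter at least twice as much as the humanized-ribosome reporter, growth loss under a set limit; inconclusive means no clear call, values can overlap the other calls; inactive means the rest.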

Test system: E. coli WT GFP strain growth, fluorescence, 24 h
Assay: growth of wild-type and h24-humanized E. coli strains – h24 mutant RFP vs wild-type GFP, cherry-pick, dose response (AID 977628);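 further: wild-type GFP and h24 humanized RFP strains co-cultured 1 to 1 per well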

Compound: O=[N+]([O-])c1cc([N+](=O)[O-])c(Nc2ccccn2)c([N+](=O)[O-])c1
- AC50: inactive: > 100 µM
